Results of unrelated studies side by side (data: NIAID ChemDB).

Common to all: growth or infection tests; organism: Hepatitis C virus; cell line: Huh7; read-out: EC50

a–b is a range or a potency band. An empty or dashed field is not shown. ECn: concentration that inhibits the pathogen or its effect by n%. Conditions beyond the fields shown may differ between rows.

SMILES	strain	read by	setting	value
CCOc1nc(N)nc2ncc(-c3ccc(OC)c(F)c3)nc12	-	-	-	1–10 µM
CC1(C)CC[C@@]2(C(=O)NCc3cn(CCCn4cc(CNC(=O)[C@]56CCC(C)(C)CC5C5=CCC7[C@@]8(C)CC[C@H](O)C(C)(C)C8CC[C@@]7(C)[C@]5(C)C[C@H]6O)nn4)nn3)C(C1)C1=CCC3[C@@]4(C)CC[C@H](O)C(C)(C)C4CC[C@@]3(C)[C@]1(C)C[C@H]2O	-	luciferase / entry	-	0.01 µM
COc1cc(C2Oc3c(O)cc([C@H]4Oc5cc(O)cc(O)c5C(=O)[C@@H]4O)cc3[C@H]2CO)ccc1O	1b	replicon	-	>100 µM
CC1(C)CC[C@@]2(C(=O)NCc3cn(CCCCCn4cc(CNC(=O)[C@]56CCC(C)(C)CC5C5=CCC7[C@@]8(C)CC[C@H](O)C(C)(C)C8CC[C@@]7(C)[C@]5(C)C[C@H]6O)nn4)nn3)C(C1)C1=CCC3[C@@]4(C)CC[C@H](O)C(C)(C)C4CC[C@@]3(C)[C@]1(C)C[C@H]2O	-	luciferase / entry	-	0.13 µM
COc1ccc([C@H]2Oc3ccc([C@H]4Oc5cc(O)cc(O)c5C(=O)[C@@H]4O)cc3O[C@@H]2CO)cc1O	1b	replicon	-	1.5 µM
C=CC1CC1(NC(=O)[C@@H]1C[C@@H](OC(=O)Nc2ccccc2Br)CN1C(=O)[C@@H](NC(=O)OC(C)(C)C)C(C)(C)C)C(=O)NS(=O)(=O)C1CC1	1b	replicon	-	0.1–1 µM
Nc1c(C(=O)N2CCOCC2)sc2nc3c(c(C(F)(F)F)c12)CCc1ccccc1-3	-	luciferase / replicon	-	3.9 µM
CC(C)(O)CCOc1nc(N)nc2ncc(-c3ccc(F)cc3)nc12	-	-	-	1–10 µM
O=C(Cc1ccc(Cl)nc1)N/N=C/c1ccccc1OS(=O)(=O)c1ccc(C(F)(F)F)cc1	-	replicon	-	<5 µM
CCN(CC)C(=O)c1sc2nc(-c3ccccc3)cc(C(F)(F)F)c2c1N	-	luciferase / replicon	-	3.5 µM
CCOc1cccc(-c2cnc3nc(N)nc(N4CCOCC4)c3n2)c1	-	-	-	1–10 µM
C=CC1CC1(NC(=O)[C@@H]1C[C@@H](OC(=O)Nc2ccc(OC)cc2)CN1C(=O)[C@@H](NC(=O)OC(C)(C)C)C(C)(C)C)C(=O)NS(=O)(=O)C1CC1	1b	replicon	-	1–10 µM
CCOc1nc(N)nc2ncc(-c3ccc(S(C)(=O)=O)cc3)nc12	-	-	-	1–10 µM
C=CC1CC1(NC(=O)[C@@H]1C[C@@H](OC(=O)Nc2ccccc2N2CCCCC2)CN1C(=O)[C@@H](NC(=O)OC(C)(C)C)C(C)(C)C)C(=O)NS(=O)(=O)C1CC1	1b	replicon	-	<0.1 µM
Nc1c(C(=O)N2CCOCC2)sc2nc(-c3ccccc3)cc(C(F)(F)F)c12	-	luciferase / replicon	-	3.3 µM
CC1CCC(C(=O)N(c2cc(C#CC(C)(C)C)sc2C(=O)O)C2CCC(O)CC2)CC1	1b	-	-	0.0003 µM
C[C@@]1(O)[C@H](O)[C@@H](CO)O[C@H]1N1C=CC(N)NC1=O	1b	replicon	-	2.8 µM
COC(=O)NC[C@H](C(=O)N1CCCC1c1ncc(-c2ccc(-c3ccc(-c4cnc(C5CCCN5C(=O)[C@@H](NC(=O)OC)C(C)C)[nH]4)cc3)cc2)[nH]1)C(C)C	1b	-	-	0.0000059 µM
COc1ccccc1-c1cnc2nc(N)nc(N3CCOCC3)c2n1	-	-	-	0.3–1 µM
C=CC1CC1(NC(=O)[C@@H]1C[C@@H](OC(=O)Nc2nc(Cl)c(Cl)nc2C(=O)OC)CN1C(=O)[C@@H](NC(=O)OC(C)(C)C)C(C)(C)C)C(=O)NS(=O)(=O)C1CC1	1b	replicon	-	>10 µM
COc1cccc(CC(=O)N/N=C/c2ccccc2OS(=O)(=O)c2ccc(Oc3ccccc3)cc2)c1	-	replicon	-	>50 µM
Nc1nc(N2CCOCC2)c2nc(-c3cccnc3F)cnc2n1	-	-	-	1–10 µM
COc1ccc(CC(=O)N/N=C/c2ccccc2OS(=O)(=O)c2ccc(C(F)(F)F)cc2)c(OC)c1	-	replicon	-	<5 µM
C=CCN(CC=C)C(=O)O[C@@H]1C[C@@H](C(=O)NC2(C(=O)NS(=O)(=O)C3CC3)CC2C=C)N(C(=O)[C@@H](NC(=O)OC(C)(C)C)C(C)(C)C)C1	1b	replicon	-	1–10 µM
O=C(Cc1c(F)ccc(F)c1F)N/N=C/c1ccccc1OS(=O)(=O)c1ccc(C(F)(F)F)cc1	-	replicon	-	<5 µM
C=CC1CC1(NC(=O)[C@@H]1C[C@@H](OC(=O)Nc2ccccc2Oc2ccccc2)CN1C(=O)[C@@H](NC(=O)OC(C)(C)C)C(C)(C)C)C(=O)NS(=O)(=O)C1CC1	1b	replicon	-	0.1–1 µM
COc1nc(N)nc2c1ncn2[C@@H]1O[C@H](COP(=O)(N[C@@H](C)C(=O)OCC(C)(C)C)Oc2cccc3ccccc23)[C@@H](O)[C@@]1(C)O	1b	luciferase	24 h	0.035 µM
Nc1nc(N2CCOCC2)c2nc(-c3ccn[nH]3)cnc2n1	-	-	-	1–10 µM
COc1cccc(CC(=O)N/N=C/c2ccccc2OS(=O)(=O)c2ccc(Oc3ccc(F)cc3)cc2)c1	-	replicon	-	>50 µM
C=CC1CC1(NC(=O)[C@@H]1C[C@@H](OC(=O)Nc2ccccc2OCC)CN1C(=O)[C@@H](NC(=O)OC(C)(C)C)C(C)(C)C)C(=O)NS(=O)(=O)C1CC1	1b	replicon	-	0.1–1 µM
Nc1nc(N2CCOCC2)c2nc(-c3ccc(Cl)s3)cnc2n1	-	-	-	0.3–1 µM

Again, the opening 4 rows:

SMILES	strain	read by	setting	value
CCOc1nc(N)nc2ncc(-c3ccc(OC)c(F)c3)nc12	-	-	-	1–10 µM
CC1(C)CC[C@@]2(C(=O)NCc3cn(CCCn4cc(CNC(=O)[C@]56CCC(C)(C)CC5C5=CCC7[C@@]8(C)CC[C@H](O)C(C)(C)C8CC[C@@]7(C)[C@]5(C)C[C@H]6O)nn4)nn3)C(C1)C1=CCC3[C@@]4(C)CC[C@H](O)C(C)(C)C4CC[C@@]3(C)[C@]1(C)C[C@H]2O	-	luciferase / entry	-	0.01 µM
COc1cc(C2Oc3c(O)cc([C@H]4Oc5cc(O)cc(O)c5C(=O)[C@@H]4O)cc3[C@H]2CO)ccc1O	1b	replicon	-	>100 µM
CC1(C)CC[C@@]2(C(=O)NCc3cn(CCCCCn4cc(CNC(=O)[C@]56CCC(C)(C)CC5C5=CCC7[C@@]8(C)CC[C@H](O)C(C)(C)C8CC[C@@]7(C)[C@]5(C)C[C@H]6O)nn4)nn3)C(C1)C1=CCC3[C@@]4(C)CC[C@H](O)C(C)(C)C4CC[C@@]3(C)[C@]1(C)C[C@H]2O	-	luciferase / entry	-	0.13 µM